Data as given in PubChem BioAssay AID1224833 (University of Georgia, 2016)

- Screen: 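Human genes whose knock-down alters rotavirus replication in monkey cells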 (primary screen)
- System: monkey MA104 kidney cells
- Reagent: siRNA pool against human genes, 50 nM
- Duration: 48 h knock-down before infection; read 24 h after infection
- Challenge: infection with rotavirus strain RV3 two days after transfection; infectious dose for this stage not given
- Measured: 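z-score of rotavirus antigen signal per well, from a fluorescent immunoassay, relative to non-targeting control wells on the same plate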
- Scale: z-score vs non-targeting control: higher = more rotavirus replication than with non-targeting control
- Hit rule: In these data the active calls have z-score vs non-targeting control at about -1 or lower, or at about 1 or higher
- Meaning of the calls: active = z-score beyond 1 either way; inactive = z-score within 1 of zero
Here is one part, drawn at random, of about 12,000 reagents. Over the whole deposit, about 5,600 (46%) got an active call. 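Active calls cover z-scores past 1 in both directions, so they include lowered as well as raised rotavirus replication.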 No sequences are given here.

target gene	z-score vs non-targeting control	Outcome
RAP1GAP (GeneID 5909)	-1.17	active
EXOC8 (GeneID 149371)	-0.54	inactive
ALDH3A2 (GeneID 224)	-1.58	active
SEC14L3 (GeneID 266629)	-0.634	inactive
CLDN20 (GeneID 49861)	0.192	inactive
FAM131B (GeneID 9715)	0.788	inactive
LPAR2 (GeneID 9170)	-1.95	active
GAL3ST3 (GeneID 89792)	1.98	active
BBS4 (GeneID 585)	-1.9	active
ABCD3 (GeneID 5825)	-1.68	active
CLEC3B (GeneID 7123)	-1.1	active
IL33R (GeneID 9173)	0.814	inactive
SLC25A40 (GeneID 55972)	0.979	inactive
IL2RG (GeneID 3561)	1.47	active
EXOSC9 (GeneID 5393)	1.61	active
ETS2 (GeneID 2114)	-1.12	active
ACOT13 (GeneID 55856)	-0.938	inactive
DOK4 (GeneID 55715)	0.0819	inactive
PARP15 (GeneID 165631)	0.457	inactive
GTF2A1 (GeneID 2957)	-1.56	active
ELANE (GeneID 1991)	1.62	active
RTF2 (GeneID 51507)	-0.57	inactive
RRP7A (GeneID 27341)	-0.934	inactive
CCL25 (GeneID 6370)	1.81	active
OBSCN (GeneID 84033)	-0.0817	inactive
C6orf47 (GeneID 57827)	-0.327	inactive
SLC9A6 (GeneID 10479)	-2.3	active
GZMK (GeneID 3003)	0.911	inactive
FAM149B1 (GeneID 317662)	-0.92	inactive
ZFP90 (GeneID 146198)	0.076	inactive
UNC119B (GeneID 84747)	-0.89	inactive
HS2ST1 (GeneID 9653)	-0.587	inactive
ADCY10 (GeneID 55811)	-0.652	inactive
PECAM1 (GeneID 5175)	-0.832	inactive
ASCL3 (GeneID 56676)	-1.66	active
FAM86C1P (GeneID 55199)	-1.19	active
SIPA1 (GeneID 6494)	-1.41	active
SCGB2A2 (GeneID 4250)	0.774	inactive
TTC5 (GeneID 91875)	1.18	active
CYP2C9 (GeneID 1559)	-1.96	active
NXPE4 (GeneID 54827)	2.14	active
ARMC5 (GeneID 79798)	1.63	active
TBC1D19 (GeneID 55296)	-2.53	active
TBC1D28 (GeneID 254272)	-1.02	active
ERV3-1 (GeneID 2086)	-0.867	inactive
PRR14 (GeneID 78994)	0.494	inactive
EIF5A (GeneID 1984)	-1.16	active
RBM4 (GeneID 5936)	-0.0209	inactive
LRRN1 (GeneID 57633)	-1.63	active
STAT1 (GeneID 6772)	2.15	active
PIGW (GeneID 284098)	-0.513	inactive
AKAP11 (GeneID 11215)	-0.777	inactive
DCTN6 (GeneID 10671)	1.41	active
ACAP2 (GeneID 23527)	-1.78	active
ADAP1 (GeneID 11033)	-0.516	inactive
HGD (GeneID 3081)	2.09	active
GSG1 (GeneID 83445)	0.034	inactive
DAZ2 (GeneID 57055)	-0.749	inactive
MCM3 (GeneID 4172)	2.1	active
OR6Q1 (GeneID 219952)	-1.47	active
ATP6V1C2 (GeneID 245973)	1.12	active
SPANXA1 (GeneID 30014)	-0.676	inactive
YWHAB (GeneID 7529)	0.0357	inactive
SAA2 (GeneID 6289)	-0.368	inactive
HNF4A (GeneID 3172)	0.53	inactive
C7orf33 (GeneID 202865)	0.78	inactive
PIGV (GeneID 55650)	-0.985	inactive
CCDC28B (GeneID 79140)	1.74	active
TEX26 (GeneID 122046)	-0.631	inactive
CAV2 (GeneID 858)	-0.959	inactive
RRP1B (GeneID 23076)	-0.984	inactive
DCP1A (GeneID 55802)	0.831	inactive
GNA11 (GeneID 2767)	-0.755	inactive
ANXA6 (GeneID 309)	0.947	inactive
PEX19 (GeneID 5824)	-0.168	inactive
GPR156 (GeneID 165829)	0.633	inactive
ACAA2 (GeneID 10449)	-0.567	inactive
SEMA4F (GeneID 10505)	0.331	inactive
KCMF1 (GeneID 56888)	-1.45	active
PCDHA13 (GeneID 56136)	-0.504	inactive
LAPTM5 (GeneID 7805)	-1.54	active
DHX37 (GeneID 57647)	-0.662	inactive
VKORC1 (GeneID 79001)	0.711	inactive
TMEM244 (GeneID 253582)	0.256	inactive
ADIPOR1 (GeneID 51094)	0.0904	inactive
FAM167B (GeneID 84734)	0.672	inactive
AGBL5 (GeneID 60509)	-0.575	inactive
OR6V1 (GeneID 346517)	-0.166	inactive
CCDC33 (GeneID 80125)	0.466	inactive
MGAT5B (GeneID 146664)	-1.64	active
STAG2 (GeneID 10735)	-0.453	inactive
SLC10A4 (GeneID 201780)	1.36	active
FHIP2B (GeneID 64760)	0.872	inactive
CDR2L (GeneID 30850)	-0.93	inactive
RPL23 (GeneID 9349)	-0.144	inactive
HOXA9 (GeneID 3205)	1.55	active
TMTC3 (GeneID 160418)	-0.867	inactive
RBM38 (GeneID 55544)	-1.4	active
ODF1 (GeneID 4956)	-0.831	inactive
PITRM1 (GeneID 10531)	0.515	inactive
CYB5R3 (GeneID 1727)	-1.3	active
OR4X2 (GeneID 119764)	1.44	active
PKNOX2 (GeneID 63876)	-0.223	inactive
SERPINH1 (GeneID 871)	-2.18	active
ZC2HC1A (GeneID 51101)	1.21	active
ARHGAP10 (GeneID 79658)	-2.51	active
GBP2 (GeneID 2634)	0.125	inactive
ZSCAN4 (GeneID 201516)	-0.353	inactive
RPL8 (GeneID 6132)	-1.17	active
CYP1B1 (GeneID 1545)	-0.83	inactive
DPAGT1 (GeneID 1798)	-1.3	active
NHLH1 (GeneID 4807)	-1.12	active
HSPH1 (GeneID 10808)	0.817	inactive
ZDHHC1 (GeneID 29800)	0.491	inactive
TP73 (GeneID 7161)	-1.54	active
C16orf78 (GeneID 123970)	-3.04	active
NAP1L3 (GeneID 4675)	-0.345	inactive
ATG14 (GeneID 22863)	0.311	inactive
RASSF2 (GeneID 9770)	0.756	inactive
PIK3R3 (GeneID 8503)	2.95	active
TMCC2 (GeneID 9911)	0.404	inactive
USP53 (GeneID 54532)	1.35	active
DYM (GeneID 54808)	-2.25	active
CYB561A3 (GeneID 220002)	0.491	inactive
KMO (GeneID 8564)	-1.02	active
BLTP3B (GeneID 23074)	-1.13	active
RASGRF2 (GeneID 5924)	0.0327	inactive
CELF1 (GeneID 10658)	-0.696	inactive
SMNDC1 (GeneID 10285)	-1.56	active
SLC45A4 (GeneID 57210)	0.495	inactive
TOP6BL (GeneID 79703)	-1.02	active
STK11IP (GeneID 114790)	-2.45	active
NDP (GeneID 4693)	-0.902	inactive
KDELR2 (GeneID 11014)	-0.803	inactive
RAB7B (GeneID 338382)	0.938	inactive
ARHGEF25 (GeneID 115557)	0.117	inactive
CSTA (GeneID 1475)	-0.929	inactive
FCRL5 (GeneID 83416)	-0.784	inactive
LPAR4 (GeneID 2846)	-0.898	inactive
SRY (GeneID 6736)	-0.761	inactive

Individual results from above:
Entry of CYB561A3 (GeneID 220002) under “z-score vs non-targeting control”: 0.491
Under “Outcome”, CCL25 (GeneID 6370) has active
UNC119B (GeneID 84747), Outcome = inactive
Under “z-score vs non-targeting control”, DCP1A (GeneID 55802) is entered as 0.831
ADAP1 (GeneID 11033), z-score vs non-targeting control = -0.516
Under “Outcome”, RPL8 (GeneID 6132) reads active
